Source: US20220306729A1 (published 2022)

T1: DENV1 EDIII, polyhistidine-AviTag, made in HEK-293-6E cells (Dengue virus 1 (NC_001477))
T1 construct: also called EDIII of DENV1
T1 chain: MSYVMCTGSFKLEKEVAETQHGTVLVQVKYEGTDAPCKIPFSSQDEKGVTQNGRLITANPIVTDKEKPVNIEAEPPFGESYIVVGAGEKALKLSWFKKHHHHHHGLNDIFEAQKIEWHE

T2: WNV EDIII, polyhistidine-AviTag (West Nile virus)
T2 chain: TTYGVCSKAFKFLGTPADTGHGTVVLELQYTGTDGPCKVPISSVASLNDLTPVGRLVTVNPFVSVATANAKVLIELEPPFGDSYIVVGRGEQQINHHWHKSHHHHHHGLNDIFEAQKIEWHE

B1: Z004 (MEX18_89) (antibody, V domains shown)
VH: EVQLLESGGGLVQPGGSLRLTCATSGFTFRDYAMSWVRQAPGKGLEWVSSYSGIDDSTYYADSVKGRFTISRDNSKSTLSLHMNSLRAEDSALYFCAKDRGPRGVGELFDSWGQGTLVTVSS
VL: DIQMTQSPSTLSASVGDRVTITCRASQSISKWLAWYQQKPGKAPKLLIYTTSTLKSGVPSRFSGSGSGTEFTLTISSLQPDDFATYYCQHFYSVPWTFGQGTKVEIK
notes: also called biotin-Z004 (biotinylated form)
B2: Z051 (BRA138_59) (antibody, V domains shown)
VH: QVQLQESGPGLVKPSQTLSLTCTVSGVSISSGGYYYSWFRQLPGKGLEWIGHIYYTGNTHYNPSLRSRLTISVDTSKNQFSLKLSSVTAADTARYYCARAWCEYAAYCWFDPWGRGTLVTVSS
VL: EIVLTQSPGTLSLSPGERATLSCRASQSVTSSYLAWYQHKPGQAPRLLIYGASSRAPGIPDRFSGSGSGTDFTLTISRLEPEDFAVYWCQQYGRSPFTFGQGTKLEIK
B3: Z034 (BRA112_09) (antibody, V domains shown)
VH: EVQLLESGGGLAQPGGSLRLSCETSGFTFRSYGMGWVRQAPGKGLEWVSSIYISGDSTYYAASVKGRFTISRDNSKSTLYLQMDRLTAEDTAVYYCVRDRIQGGFGELYRYWGQGTLVTVSS
VL: DIQMTQSPSTLSASVGDRVTMTCRASQSVNKWLAWYQQKPGKAPKLLIYETSILESGVSSRFSGSGSGTEFTLTISSLQPDDFATYYCQHYHGYPWTFGQGTKVEIK
B4: Z021 (MEX84_p4-23) (antibody, V domains shown)
VH: QVQLQESGPGLVKPSETLSLTCTVSGGSIDTYYWSWIRQTPGKGLEWIGCFYYSVDNHFNPSLESRVTISVDTSKNQFSLKMTSMTASDTAVYYCARNQPGGRAFDYWGPGTLVTVSS
VL: EIVLTQSPATLSLSPGQRATLSCRASQSVSNYFAWYQQKPGQAPRLLIYDTSKRATGTPARFSGSGSGTDFTLTISSLEPEDFAVYYCQERNNWPLTWTFGLGTKVEIK
B5: Z017 (MEX84_p2-58) (antibody, V domains shown)
VH: QVQLVQSGAGMRKPGASVKVSCKASGYSFNDYYIHWVRQAPGQGLEWMGWINPKSGFTNYAQRFQGRVTMTGDTSNSVAYMELTRLTSDDTAVYYCARGGRINAPLGFDPWGQGTLVTVSS
VL: EIVLTQSPDTLSLSPGETATLSCRASQSIGSISLGWYQQKFGQAPRLLIYGASTRATGTPDRFSGSGSETDFTLTISRLEPEDSAVYYCQQYVSSPLRFGGGTKVEIK
B6: Z061 (BRA112_36) (antibody, V domains shown)
VH: EVQLVESGGGVVQPGRSLRLSCAASGFTFSISTIHWVRQAPGKGLEYVVVISHDGNTKYYADSVKGRFIISRDNSKNTVFLQMNSLRPVDTAVYYCARGEVGYFDLWGRGTLVTVSS
VL: EIVLTQSPATLSLSPGERATLSCRASQSVSSFLAWYQQKPGQPPRLLIYDASTRATGIPARFSGSGSGTDFTLTISSLEPEDFAVYYCQQRSNWPPITFGQGTRLEIK
B7: Z055 (MEX84_p4-61) (antibody, V domains shown)
VH: EVQLVQSGAEVKKPGASVKVSCKASGYTFSGYYIHWLRQAPGQGLEWMGWINSNSGGADSGPRFHGRVTMTRDTSINTAYLELTNLRSDDTAVYYCARRTYYDTRFPYWYFDLWGRGTLVTVSS
VL: AIRMTQSPSSLSASVGDRVTITCRASQDIGSYLNWYQQKPGKAPNVLISAASTLQSGVPSRISGIGSGTDFTLTISSLQPEDFATYYCQQSLSAPYTFGQGTKLEIK
B8: Z053 (BRA138_65) (antibody, V domains shown)
VH: QLQLQESGPGLVKPSETLSLTCTVSGGSISSYNYYWGWIRQPPGKGLEFIGSIYYTGSTYYNPSLRSRVTISVDTSKNQFSLKLTSVTAADTAVYYCARHGPGMGHNWYFDLWGRGTLVTVSS
VL: EIVLTQSPATLSLSPGERATLSCRASQSISSYLAWYQQKPGQAPRLLIYDASNRAPGIPARFSGSGSGTDFTLTISSLEPEDFAVYYCQQRSTWLTFGGGTKVEIK
B9: Z052 (BRA138_62) (antibody, V domains shown)
VH: QVQLQESGPGLVKPSQTLSLTCTVSGGSITGGVYYWNWIRHHPGKGLEWIGYMFYSGDTDYNPSLRSRVTISGDTSKNKFSLNLNSVTAADTAVYYCARAGFDYGSPVSAFDIWGQGTLVTVSS
VL: EIVLTQSPATLSLSPGERATLSCRASQSVSSTYLVWYQQKPGQAPRLLIYGASSRATGIPDRFSGSGSGTDFTLTISRLEPEDFAVYFCQQYAHSPRGYTFGQGTKLEIK
B10: Z016 (MEX84_p2-55) (antibody, V domains shown)
VH: QVQLVQSGAEVKKPGASVKLSCKASGYTFTSYYVHWVRQAPGQGLEWMGIINPGNNFVSFAQNFYDRATMTRDTSTNTVYMELTNLQSEDTAVYYCARTLVAPSAQSMYYFDFWGQGTLVTVSS
VL: EIVLTQSPGTLSLSPGERGTLSCRASQYITTGHFAWYQQKPGRAPRLLIYGASVRATGVPDRFSGSGAETDFTLTISRLDPEDVGVYYCQQYGSSPVTFGPGTKVDIK
B11: Z059 (MEX84_p4-34) (antibody, V domains shown)
VH: EVQLVQSGAEVKTPGSSVKVSCKTSGGTFSNFAITWVRQAPGQGLEWMGGIIPLFGITNYTQKFQGRVTITTDESKTTAYMDLSGLRSEDTAVYFCARGRDSSGRLLDHWGQGTLVTVSS
VL: EIVMTQSPATLSVSPGERATLSCRASQTVNRNLAWYQQKPGQAPRLLIYAASARATGVPARFSGSGSGTEFTLTISSLQSEDFVVYYCQQYNNWPPLTFGGGTKLEIK
B12: Z057 (MEX84_p4-54) (antibody, V domains shown)
VH: EVQLVQSGAEVKRPGASVKVSCKASGYTFADYYIHWVRQAPGLGLEWMGWINPKTGFSHYEQTFQGRVTMARDTSIPAAYMELSSLKSDDTAIYYCARGGRINVAEALRYWGQGSLVTVSS
VL: DIQMTQSPSTLSTFVGDRVTITCRASQTIGDWLAWYQQKPGKAPKLLISKATRLESGVPSRFSGSGSETEFSLTINSLQPDDVAAYYCQQYMSYPWTFGQGTKLEIK
B13: Z013 (MEX18_84) (antibody, V domains shown)
VH: EVQLLESGGGLVQPGGSLRLSCAASGFTFTSYAMNWVRQAPGKGLEWVSGIGGRGAIAGDGSIYYADSVKGRFTISRDNSKNIVYLQMNGLRVEDTAVYYCAKDRVAFDGFHVWGQGTLVTVSS
VL: DIQMTQSPPTLSASVGDRVTITCRASQSISSWLAWYQQKPGKAPKLLIYKASSLESGVPSRFSGSGSGTEFSLTISSLQPEDFATYYCQQYNSYPWTFGQGTKVEIK
B14: Z050 (BRA138_28) (antibody, V domains shown)
VH: QVQLVQSGAEVKKPGSSVKVSCKAPGGTFSRYSIAWVRQAPGQGLEWMGGINPTFTTPNYAQKFQGRVTITADESTNTAYLDLSSLRSEDTAVYYCARFRYYYESGGYSDASPYYLDYWGQGTLVTVSS
VL: EIVLTQSPATLSLSPGERVTLSCRASQSVSSYLAWYQQKPGQAPRLLIYDASNRATGIPARFTGSGSGTDFTLTISSLEPEDFAVYYCQQRSNWPLTFGGGTKVEIK
B15: Z062 (BRA112_70) (antibody, V domains shown)
VH: EVQLVESGGGVVQPGRSLRLSCAASGFSFSSHAMYWVRQAPGKGLEWVAIVSYDGSTKNYADSVKGRFTISRDNSKNTIYLHLNSLRAEDTAVYFCAREVDGIYGYLHYWGQGTLVTVSS
VL: EIVLTQSPATLSLSPGERATLSCRARQNVRNFLAWYQQKPGQAPRLLIYDASNRATDIPARFSGSGSGTDFTLTISSLEPEDFAVYYCQQRSYSITFGQGTRLEIK
B16: Z056 (MEX84_p2-94) (antibody, V domains shown)
VH: EVQLVQSGAEVKKPGASVKVSCKASGNTFMGYYFHWVRQAPGQGLEWMGWINPNSGHANIAQTFQGRVTMTRDPSITTAYMELSRLRSDDTAVFYCARGGMLGQLWALDNWGQGTLVTVSS
VL: DIQMTQSPSTLSASVGDRVTITCRASQSISHWLAWYQQRPGEAPKLLIYQASTLESGVPSRFSGSGSGTEFTLSISSLQPDDFATYYCQQYQSSPYTFGQGTKLEIK

Tests used:
[1] = target: T1, DENV1 EDIII, polyhistidine-AviTag, made …; test: ELISA on DENV1 EDIII (FIG. 3D)
[2] = target: T1, DENV1 EDIII, polyhistidine-AviTag, made …; test: ELISA on EDIII (Table A)
[3] = target: T2, WNV EDIII, polyhistidine-AviTag; test: ELISA on EDIII (Table A)
[4] = target: T3, DENV2 EDIII, polyhistidine-AviTag (Dengue virus 2, UniProt P29990 577-674); test: cross-reactivity ELISA on EDIII proteins (refers to Examples 1 and 2)
T3 construct: domain: EDIII

[5] = target: T4, DENV3 EDIII, polyhistidine-AviTag (Dengue virus 3, UniProt Q6YMS4 575-672); test: as above
T4 construct: domain: EDIII

[6] = target: T5, DENV4 EDIII, polyhistidine-AviTag (Dengue virus 4, UniProt P09866 576-673); test: as above
T5 construct: domain: EDIII

[7] = target: T6, YFV (Asibi strain) EDIII, polyhistidine-AviTag (Yellow fever virus, Asibi strain, UniProt Q6DV88 580-677); test: as above
T6 construct: domain: EDIII

[8] = target: T7, YFV (17D strain) EDIII, polyhistidine-AviTag (Yellow fever virus, 17D strain, UniProt P03314 580-677); test: as above
T7 construct: domain: EDIII

[9] = target: T2, WNV EDIII, polyhistidine-AviTag; test: as above

| Binder | binding result [2] | binding result [3] | also measured |
| --- | --- | --- | --- |
| B1 | – | – | binding result [1]: binds |
| B2 | no binding | no binding | – |
| B3 | binds | no binding | – |
| B4 | – | – | binding result [4]: no binding; binding result [5]: no binding; binding result [6]: no binding; binding result [7]: no binding; binding result [8]: no binding; binding result [9]: no binding |
| B5 | no binding | binds | – |
| B6 | no binding | no binding | – |
| B7 | no binding | binds | – |
| B8 | no binding | no binding | – |
| B9 | no binding | binds | – |
| B10 | no binding | binds | – |
| B11 | no binding | binds | – |
| B12 | no binding | binds | – |
| B13 | binds | no binding | – |
| B14 | no binding | binds | – |
| B15 | no binding | no binding | – |
| B16 | no binding | binds | – |
